Assay results as given in ChEMBL document CHEMBL1629672, “blaCTX-M genes in escherichia coli strains from Croatian Hospitals are located in new (blaCTX-M-3a) and widely spread (blaCTX-M-3a and blaCTX-M-15) genetic structures” (2009).

Tested on: Escherichia coli
Details: ATCC 25922

GENTAMICIN
MIC: 0.5 µg/mL
